Only a part is listed here, and it is no random draw. Active and inactive are the calls of the source. No stated cut-off is given here; in the data, active means inhibition above about 12%; inactive means the rest.
assay: growth inhibition of E. coli expressing H. pylori AddAB, primary screen, AddAB inhibitor project, absorbance (AID 435030); settings: at 11.9 µM, active compounds read high;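 further: 0% = vehicle wells of infected cells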

Q: With `COc1ccc(Cl)cc1C(=O)NCC1(N2CCOCC2)CCCCC1` as the compound, how does the inhibition read?
A: The inhibition was inactive: 1.79%.

Q: For `O=C(OC1CN2CCC1CC2)C1c2ccccc2Oc2ccccc21` (stereo not drawn), which inhibition is on record?
A: The inhibition was inactive: -2.14%.

Q: For `N#CC1(Nc2ccccc2)CCN(Cc2ccccc2)CC1`, which inhibition is on record?
A: Its inhibition is inactive: 0.97%.

Q: For `O=C(NCC1(N2CCCCC2)CCCCC1)c1ccc(Cl)s1`, which inhibition is on record?
A: Its inhibition is inactive: 0.58%.

Q: Which inhibition does the source give for `CCOC(=O)N1CCC(Nc2ccc(OC)cc2)CC1` here?
A: The inhibition was inactive: -0.08%.

Q: Which inhibition does the source give for `Cc1cc(C)cc(N(C(=O)c2ccccc2)C2CCN(C(=O)OC(C)(C)C)CC2)c1` here?
A: The inhibition was inactive: -0.98%.

Q: Which inhibition does the source give for `O=C(NCC1(N2CCCCC2)CCCCC1)c1ccc(Cl)nc1` here?
A: Its inhibition is inactive: -1.02%.

Q: With `O=C(NCC1(N2CCOCC2)CCCCC1)c1cc2ccccc2o1` as the compound, how does the inhibition read?
A: The inhibition was inactive: 2.7%.

Q: With `CSc1ccccc1C(=O)NCC1(N2CCCCC2)CCCCC1` as the compound, how does the inhibition read?
A: The inhibition was inactive: 0.25%.

Q: With `CC(C)(C)OC(=O)N1CCC(N(C(=O)c2ccccc2)c2ccc(F)cc2)CC1` as the compound, how does the inhibition read?
A: The inhibition was inactive: -1.62%.

Q: Which inhibition does the source give for `COc1ccc(C(=O)NCC2(N3CCCCC3)CCCCC2)c(OC)c1OC` here?
A: The inhibition was inactive: -2.49%.

Q: Which inhibition does the source give for `COc1ccc(C(=O)NCC2(N3CCCCC3)CCCCC2)cc1` here?
A: The inhibition was inactive: 3.2%.

Q: Which inhibition does the source give for `O=C(NCC1(N2CCCCC2)CCCCC1)c1cccs1` here?
A: Its inhibition is inactive: -1.71%.

Q: With `O=C(NCC1(N2CCCCC2)CCCCC1)c1ccc(=O)[nH]c1` as the compound, how does the inhibition read?
A: The inhibition was inactive: 4.32%.

Q: With `Cc1ccc(OCC(C)C)c(CN(CCCl)CCCl)c1` as the compound, how does the inhibition read?
A: The inhibition was inactive: -1.96%.

Q: With `CCOC(=O)N1CCC(Nc2cccc(C)c2)CC1` as the compound, how does the inhibition read?
A: The inhibition was inactive: 1.5%.

Q: With `COc1ccc(NC2CCN(CCc3ccccc3)CC2)c(OC)c1` as the compound, how does the inhibition read?
A: Its inhibition is inactive: 0.09%.

Q: With `O=C(NCC1(N2CCCCC2)CCCCC1)c1ccc(F)cc1` as the compound, how does the inhibition read?
A: Its inhibition is inactive: 4.68%.

Q: Which inhibition does the source give for `CCOc1ccc(C)cc1CN(CCCl)CCCl` here?
A: The inhibition was inactive: 0.08%.

Q: Which inhibition does the source give for `O=C(NCC1(N2CCOCC2)CCCCC1)c1cc(=O)[nH]c2ccccc12` here?
A: The inhibition was inactive: 6.88%.

Q: For `COc1cc(C(=O)NCC2(N3CCCCC3)CCCCC2)ccc1OC(F)F`, which inhibition is on record?
A: Its inhibition is inactive: 4.74%.

Q: Which inhibition does the source give for `COc1ccc(NC2CCN(C(=O)OC(C)(C)C)CC2)cc1` here?
A: Its inhibition is inactive: -0.85%.

Q: For `CN1CCN(CCOC(=O)C(O)(c2ccccc2)c2ccccc2)CC1`, which inhibition is on record?
A: The inhibition was inactive: 2.67%.

Q: For `O=C(NCC1(N2CCCCC2)CCCCC1)c1cccc(C(F)(F)F)c1`, which inhibition is on record?
A: The inhibition was inactive: 2.94%.

Q: Which inhibition does the source give for `N#CC1(Nc2ccccc2)CCN(CCc2ccccc2)CC1` here?
A: Its inhibition is inactive: 1.44%.

Q: With `CCN1CCC(Nc2ccc(Cl)cc2)CC1` as the compound, how does the inhibition read?
A: Its inhibition is inactive: 2.5%.

Q: With `O=C(NCC1(N2CCCCC2)CCCCC1)c1cccc([N+](=O)[O-])c1` as the compound, how does the inhibition read?
A: The inhibition was inactive: 2.84%.

Q: Which inhibition does the source give for `O=C(NCC1(N2CCCCC2)CCCCC1)c1ccc(OC(F)F)cc1` here?
A: Its inhibition is inactive: 3.33%.

Q: For `O=C(NCC1(N2CCCCC2)CCCCC1)c1cncc(Br)c1`, which inhibition is on record?
A: The inhibition was inactive: 0.94%.

Q: For `CN1CCC(Nc2cccc(F)c2)CC1`, which inhibition is on record?
A: Its inhibition is inactive: 0.94%.

Q: With `O=C(NCC1(N2CCOCC2)CCCCC1)c1cc(F)c(F)cc1Cl` as the compound, how does the inhibition read?
A: Its inhibition is inactive: -0.5%.

Q: Which inhibition does the source give for `COc1cc(OC)c(C(=O)NCC2(N(C)C)CCCCC2)cc1OC` here?
A: The inhibition was inactive: 2.88%.

Q: Which inhibition does the source give for `CC(C)c1ccc(NC2CCN(C(=O)OC(C)(C)C)CC2)cc1` here?
A: The inhibition was inactive: 4.29%.

Q: With `CN(C)c1cccc(C(=O)NCC2(N3CCCCC3)CCCCC2)c1` as the compound, how does the inhibition read?
A: Its inhibition is inactive: 2.2%.

Q: Which inhibition does the source give for `COc1ccc(CN(CCCl)CCCl)cc1Cl` here?
A: Its inhibition is inactive: 1.88%.

Q: With `O=C(OC1CN2CCC1CC2)C1c2ccccc2C=Cc2ccccc21` (stereo not drawn) as the compound, how does the inhibition read?
A: The inhibition was inactive: 1.12%.

Q: Which inhibition does the source give for `CCc1cc(C(=O)NCC2(N3CCCCC3)CCCCC2)sc1C` here?
A: The inhibition was inactive: 1.72%.

Q: Which inhibition does the source give for `CCOC(=O)N1CCC(Nc2ccc(C)cc2)CC1` here?
A: Its inhibition is inactive: 3.17%.

Q: Which inhibition does the source give for `N/C(=N\O)c1c(N)no[n+]1[O-]` here?
A: The inhibition was inactive: 3.49%.

Q: Which inhibition does the source give for `COc1ccc(C(=O)NCC2(N3CCOCC3)CCCCC2)cc1OC` here?
A: The inhibition was inactive: 2.15%.

Q: For `COc1cc(C(=O)NCC2(N3CCOCC3)CCCCC2)cc(OC)c1C`, which inhibition is on record?
A: The inhibition was inactive: 1.17%.

Q: For `O=C(NCC1(N2CCOCC2)CCCCC1)c1cc(Br)ccc1Cl`, which inhibition is on record?
A: The inhibition was inactive: 0.43%.

Q: For `CN(C)C1(CNC(=O)c2cccc(C#N)c2)CCCCC1`, which inhibition is on record?
A: The inhibition was inactive: 1.73%.

Q: For `CCCN1CCC(Nc2cc(OC)cc(OC)c2)CC1`, which inhibition is on record?
A: The inhibition was inactive: 4.17%.

Q: Which inhibition does the source give for `c1ccc(CN2CCC(Nc3ccccc3)CC2)cc1` here?
A: Its inhibition is inactive: 3.93%.

Q: With `N#Cc1ccc(C(=O)NCC2(N3CCCCC3)CCCCC2)cc1` as the compound, how does the inhibition read?
A: Its inhibition is inactive: 1.98%.

Q: With `CC(C)(C)OC(=O)N1CCC(N(C(=O)c2ccccc2)c2ccc(Cl)cc2)CC1` as the compound, how does the inhibition read?
A: Its inhibition is inactive: -1.4%.

Q: Which inhibition does the source give for `CN(C)c1ccc(C(=O)NCC2(N3CCCCC3)CCCCC2)cc1` here?
A: Its inhibition is inactive: 4.29%.

Q: For `O=C(NCC1(N2CCCCC2)CCCCC1)c1ccco1`, which inhibition is on record?
A: The inhibition was inactive: 3.19%.

Q: With `CCN1CCC(Nc2cccc(F)c2)CC1` as the compound, how does the inhibition read?
A: The inhibition was inactive: 5.14%.

Q: Which inhibition does the source give for `Fc1ccccc1NC1CCN(Cc2ccccc2)CC1` here?
A: Its inhibition is inactive: 1.79%.

Q: With `Cc1ccc(C(=O)NCC2(N3CCCCC3)CCCCC2)o1` as the compound, how does the inhibition read?
A: The inhibition was inactive: -0.16%.

Q: Which inhibition does the source give for `COc1cc(OC)cc(C(=O)NCC2(N3CCCCC3)CCCCC2)c1` here?
A: The inhibition was inactive: 0%.

Q: Which inhibition does the source give for `CN1CCC(Nc2ccc(Cl)cc2)CC1` here?
A: Its inhibition is inactive: 1.67%.

Q: Which inhibition does the source give for `CCCOc1ccc(C)cc1CN(CCCl)CCCl` here?
A: Its inhibition is inactive: -1.1%.

Q: With `COc1cccc(C(=O)N(c2cc(C)cc(C)c2)C2CCN(C(=O)OC(C)(C)C)CC2)c1` as the compound, how does the inhibition read?
A: The inhibition was inactive: 0.97%.

Q: For `COc1cc(OC)cc(C(=O)NCC2(N3CCOCC3)CCCCC2)c1`, which inhibition is on record?
A: The inhibition was inactive: 6.44%.

Q: With `CCC(CO)(C(=O)OC1CN2CCC1CC2)c1ccccc1` (stereo not drawn) as the compound, how does the inhibition read?
A: Its inhibition is inactive: -2.54%.

Q: Which inhibition does the source give for `O=C(O)C1(Nc2ccccc2)CCN(Cc2ccccc2)CC1` here?
A: The inhibition was inactive: -0.25%.

Q: Which inhibition does the source give for `CC(C)(C)OC(=O)N1CCC(Nc2ccccc2)CC1` here?
A: The inhibition was inactive: 1.02%.

Q: Which inhibition does the source give for `CCCOc1ccc(C(=O)NCC2(N(C)C)CCCCC2)cc1` here?
A: The inhibition was inactive: -0.41%.

Q: Which inhibition does the source give for `CN1CCC(Nc2ccc(F)c(Cl)c2)CC1` here?
A: Its inhibition is inactive: 2.17%.

Q: For `CCOc1ncccc1C(=O)NCC1(N2CCOCC2)CCCCC1`, which inhibition is on record?
A: The inhibition was inactive: 2.27%.
